Results of unrelated studies side by side (data: NIAID ChemDB).

Shared fields: toxicity to cultured cells; cells: HeLa; measure: CC50

Conditions beyond the fields shown may differ between rows. CCn: concentration that lowers growth or viability of the cells by n%.

compound | result
CO[C@H](CO)[C@@H](O)CCn1cnc2c(N)ncnc21 | >400 µg/mL
O=c1c(Cc2ccccc2)coc2ccccc12 | 50 µM
Nc1ncnc2c1ncn2[C@@H]1C[C@H](COP(=O)(O)O)[C@@H](O)[C@H]1O | >400 µg/mL
O=C1c2ccccc2OCC1Cc1ccc(O)cc1 | 1.56 µM
CO[C@H](CO)[C@@H](O)CCn1ccc(N)nc1=O | >400 µg/mL
O=C(/C=C/c1ccc(O)c(O)c1)Oc1c(-c2ccc(Cl)c(Cl)c2)oc2ccccc2c1=O | 1.41 µM
Cc1cn(CC[C@H](O)CCO)c(=O)[nH]c1=O | >400 µg/mL
O=C(Oc1c(-c2ccc(Cl)cc2)oc2ccccc2c1=O)c1cc(O)c(O)c(O)c1 | 5.31 µM
COc1ccc(CC2COc3ccccc3C2=O)cc1 | 6.25 µM
CC(=O)c1c(-c2ccc(Cl)c(Cl)c2)oc2ccccc2c1=O | 3.57 µM
Nc1ccn(CC[C@H](O)CCO)c(=O)n1 | >400 µg/mL
O=c1c(O)c(-c2ccc(Cl)cc2)oc2ccccc12 | 1.49 µM
Nc1ncnc2c1ncn2C1CC(COP(=O)(O)O)[C@@H](O)[C@H]1O | 20 µg/mL
O=c1c(O)c(-c2ccc(Cl)c(Cl)c2)oc2ccccc12 | 3.52 µM
COc1ccc(Cc2coc3cc(OC)cc(OC)c3c2=O)cc1 | 1.56 µM

The last 2 rows once more:

compound,result
O=c1c(O)c(-c2ccc(Cl)c(Cl)c2)oc2ccccc12,3.52 µM
COc1ccc(Cc2coc3cc(OC)cc(OC)c3c2=O)cc1,1.56 µM